Test results taken from patent US6369057B1, “Quinoxalines, processes for their preparation and their use” (Aventis Pharma Deutschland GmbH, priority 1991, dated 2002).

Columns and labels:
[1] = target: HIV reverse transcriptase (RT) (Human immunodeficiency virus type 1 group M subtype B, UniProt P03366); assay: Assay for HIV reverse transcriptase inhibition (scintillation proximity assay); conditions: RT from HIV cloned in E. coli; SPA, 60 minutes (37° C.)
Experimental: Assay of the Substances for HIV Reverse Transcriptase Inhibition
The activity of reverse transcriptase (RT) was determined with the aid of a scintillation proximity assay (SPA).
The reagent kit for the RT-SPA was obtained from Amersham/Buchler (Braunschweig).
The enzyme RT (from HIV cloned in E. coli) originated from HT-Biotechnology Ltd, Cambridge, UK.
The assay was carried out using the manufacturer's (Amersham) protocol manual, with the following modifications: bovine serum albumin was added to the assay buffer to give an end concentration of 0.5 mg/ml the assay was carried out in Eppendorf reaction vessels, using 100 μl volume per batch the manufacturer's RT concentrate (5000 U/ml) was diluted in Tris-HCl buffer 20 mM; pH 7.2; 30% of glycerol, to an activity of 15 U per ml the incubation time for the mixtures was 60 minutes (37° C.) after stopping the reaction and “developing” with the bead suspension, 130 μl of mixture were transferred to 4.5 ml of Tris-HCl buffer, 10 mM; pH 7.4; 0.15 M NaCl, and the tritium activity was measured by means of a [formula]-counter.
For a pre-assay for inhibitory activity, the substances were dissolved in DMSO (stock solution c=1 mg/ml), and tested as a 10^−1, 10^−2, 10^−3, etc., dilution in DMSO. […]
The concentration corresponding to a 50% enzyme inhibition was determined from a plot of RT activity versus log Clnh.

[2] = tested on: HIV; assay: Test of preparations against HIV in cell culture (T-cell culture assay); type: cell-based; conditions: lowest concentration where no giant cells were observed; HIV-infected lymphocytes from donor blood, 3 days at 37° C.
Experimental: Test of Preparations Against HIV in Cell Culture
Complete medium additionally contains 20% fetal calf serum and 40 IU/ml recombinant interleukin 2.
Lymphocytes which have been isolated from fresh donor blood by means of Ficoll gradient centrifugation are cultured for 36 hours in complete medium with an addition of 2 μg/ml phytohemagglutinin (Wellcome) at 37° C. under 5% of CO2. After 10% of DMSO has been added, the cells are frozen at a density of 5 [formula]10^6 and stored in liquid nitrogen. For the test, the cells are defrosted, washed in RPMI medium and cultured for 3-4 days in the complete medium.
The test preparations were dissolved in DMSO at a concentration of 16.7 mg/ml and diluted in complete medium to 1 mg/ml.
0.4 ml of medium was introduced into 24-multiwell dishes. 0.1 ml of the dissolved preparation was added to the upper row of the dish, and, by transferring 0.1 ml portions, a geometric dilution series was established. […] The titer of these culture supernatants was determined by end-point titration as 1-5 [formula]10^6 infectious units/ml. […]
The infected cell cultures were examined under the microscope for the presence of giant cells, which indicate active virus multiplication in the culture. The lowest concentration of preparation where no giant cells were observed was determined as inhibitory concentration against HIV. […]

| Structure (SMILES) | Reverse Transcriptase Assay IC50 [1] | T-cell culture assay MIC [2] |
| --- | --- | --- |
| CC(C)=CCN1c2cc(Cl)ccc2NC(=O)C1C(C)C (stereo not drawn) | 0.1 to 1 µg/mL | <2.0 µg/mL |
| C=C(C)OC(=O)N1c2cc(Cl)ccc2NC(=S)C1CCCC (stereo not drawn) | 0.1 to 1 µg/mL |  |
